Toxic doses and inconclusive results are not listed.
Tested on: CD2F1 mice, L1210 leukemia ip, survival T/C
Test: NCI In Vivo Anticancer Drug Screen. Data for tumor model L1210 Leukemia (intraperitoneal) in CD2F1 (CDF1) mice
Conditions: endpoint: median survival time, vehicle: saline, higher = longer survival
Summary of the method: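 Transplantable tumor in mice; compound-treated vs vehicle-treated groups. Read-out = treated/control ratio of the measured endpoint.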

O=P1(N(CCCl)CCCl)NC(SCCS(=O)(=O)O)CCO1 (stereo not given)
T/C (dose: 12.5 mg/kg/injection, schedule: Q01DX009 (ip)): 150 % of control
T/C (dose: 150.0 mg/kg/injection, schedule: Q01DX001 (ip)): 315 % of control
T/C (dose: 200.0 mg/kg/injection, schedule: Q01DX001 (ip)): 232 % of control
T/C (dose: 200.0 mg/kg/injection, schedule: Q01DX009 (ip)): 107 % of control
T/C (dose: 250.0 mg/kg/injection, schedule: Q01DX001 (ip)): 410 % of control

Reference: PubChem BioAssay AID256 (DTP/NCI, 2004)
